Measured values from several laboratories, pooled; numbers as filed in NIAID ChemDB.

Common to all: whole-cell or culture tests; organism: HIV-1; measure: EC50

ECn: concentration that inhibits the pathogen or its effect by n%.

structure | strain or isolate | mutations | read by | conditions | value
NC(=O)c1ccc(Cn2cc(CSc3nc(Cc4c(Cl)cccc4Cl)c(I)c(=O)[nH]3)nn2)cc1 | IIIB | - | MTT | - | >94.13 µM
CCc1cc(-c2ccc(C)o2)n(-c2ccc3c(c2)nc(-c2ccccc2O)n3CC2=CCC(=O)N=C2)n1 | NL4-3 | - | luciferase | - | 0.26 µM
Cn1c(=O)cc(Oc2nc(Nc3ccc(C#N)cc3)nc(Nc3nc4ccc(F)cc4s3)n2)c2ccccc21 | IIIB | - | MTT | - | >2.26 µg/mL
CNC(=O)CCCCn1c(=O)c(C)cn([C@@H]2O[C@H](CO[Si](C)(C)C(C)(C)C)C3(OS(=O)(=O)C=C3N)[C@H]2O[Si](C)(C)C(C)(C)C)c1=O | - | - | - | - | 0.03–0.76 µM
CC(C)Nc1ccc(Cl)nc1N(C)C1CCN(C(=O)c2cc3cc(NS(C)(=O)=O)ccc3[nH]2)CC1 | NL4-3 | - | - | - | 0.6 µg/mL
Cc1cn([C@@H]2O[C@H](CO[Si](C)(C)C(C)(C)C)C3(OS(=O)(=O)C=C3N)[C@H]2O[Si](C)(C)C(C)(C)C)c(=O)n(CC(N)=O)c1=O | - | - | - | - | 0.03–0.76 µM
Fc1cccc(F)c1C1SCc2nc3ccccc3n21 | IIIB | RT-E138K | cytopathic effect / MTT | - | 1.73 µM
Cc1cn([C@H]2C[C@H](N=[N+]=[N-])[C@@H](CO)O2)c(=O)[nH]c1=O | IIIB | - | - | - | 0.0001 µg/mL
Cc1cn([C@H]2C[C@H](N=[N+]=[N-])[C@@H](CO)O2)c(=O)[nH]c1=O | CC8 Clinical isolates | - | p24 | - | 0.003 µM
CCOC(=O)c1cn([C@@H]2O[C@@H](COC(=O)c3ccccc3)[C@H](OC(=O)c3ccccc3)[C@H]2F)nn1 | - | - | - | - | >100 µM
Nc1ccn([C@H]2CC[C@@H](CO)O2)c(=O)n1 | HIVRTMC (RT D67N K70R L74V T215F K219Q) | RT-D67N K70R L74V T215F K219Q | plaque count | - | 2 µM
N#Cc1ccccc1Cn1cc(CSc2nc(Cc3cccc4ccccc34)cc(=O)[nH]2)nn1 | IIIB | - | MTT | - | >105 µM
Cn1c(=O)cc(Oc2nc(Nc3ccc(C#N)cc3)nc(Nc3nc4ccc(Cl)cc4s3)n2)c2ccccc21 | IIIB | - | MTT | - | >2.19 µg/mL
CCCCC[C@H](O)/C=C/[C@H]1[C@H](O)CC(=O)[C@@H]1C/C=C\CCCC(=O)O | - | - | syncytia | - | >40 µM
CCCc1cc(=O)oc2c3c(c4c(c12)OC(C)(C)C=C4)O[C@@H](C)[C@H](C)[C@@H]3O | UC781-RS(RT-Y181C | RT-Y181C | - | - | <0.15 µM
CC(C)(C)NC(=O)[C@@H]1C[C@@H]2CCCC[C@@H]2CN1C[C@@H](O)[C@H](Cc1ccccc1)NC(=O)[C@@H](N)C(C)(C)S(C)(=O)=O | - | - | - | - | 0.099 µM
CCOC(=O)c1cn(C2OC(COC(=O)c3ccccc3)C(OC(=O)c3ccccc3)C2F)nn1 | - | - | - | - | >100 µM
O=C1Nc2ccc(Cl)cc2[C@@](C#CC2CC2)(C(F)(F)F)O1 | LAI | - | - | pseudotyped | 0.00038 µM
Cc1cn([C@H]2C[C@H](F)[C@H](CO)O2)c(=O)[nH]c1=O | - | - | - | - | >1000 µM
C=C(CC[C@@H](C)[C@H]1CC=C2C3=C([C@@H](O)[C@H](OC(C)=O)[C@@]21C)[C@@]1(C)C[C@@H](O)[C@H](OS(=O)(=O)O)C(C)(C)[C@@H]1CC3)C(C)C | - | - | - | - | <25 µM
Cc1cn([C@@H]2O[C@H](CO[Si](C)(C)C(C)(C)C)C3(OS(=O)(=O)C=C3N)[C@H]2O[Si](C)(C)C(C)(C)C)c(=O)n(CC2CC2)c1=O | - | - | - | - | 0.03–0.76 µM
Cc1cn([C@H]2C[C@H](N=[N+]=[N-])[C@H](CO)O2)c(=O)[nH]c1=O | - | - | - | - | >1000 µM
NC(=O)[C@H](Nc1ccccc1[N+](=O)[O-])c1c(Cl)cccc1Cl | IIIB | - | p24 | - | 0.013 µg/mL
Cc1cc(C)cc(C(=O)c2cc(Cl)ccc2OCCN2CCC(=O)NC2=O)c1 | - | K103N + Y181C | RT activity | pseudotyped | >10 µM
CC(C)(C)NC(=O)[C@@H]1C[C@@H]2CCCC[C@@H]2CN1C[C@@H](O)[C@H](Cc1ccccc1)NC(=O)CC(C)(C)S(C)(=O)=O | - | - | - | - | 0.25 µM
O=c1[nH]c(SCc2cn(Cc3ccccc3)nn2)nc(Cc2c(Cl)cccc2Cl)c1I | RES056 | - | MTT | - | >120 µM
CC(C)(C)NC(=O)[C@@H]1C[C@@H]2CCCC[C@@H]2CN1C[C@@H](O)[C@H](Cc1ccccc1)NC(=O)[C@H](CC(N)=O)NC(=O)c1ccc2ccccc2n1 | - | - | - | - | 0.002–0.01 µM
O=C(O)/C=C/c1ccc(O)c(O)c1 | - | - | - | - | >1000 µM
Cc1cn([C@H]2C[C@H](N=[N+]=[N-])[C@@H](CO)O2)c(=O)[nH]c1=O | - | - | - | - | 0.0005 µg/mL
CC1(C)O[C@H]2[C@H](n3cnc4c(N(C(=O)c5ccccc5)C(=O)c5ccccc5)ncnc43)O[C@](F)(CI)[C@H]2O1 | - | - | - | - | <10 µM
Cc1cc(C)cc(C(=O)c2cc(Cl)ccc2OCCN2C(=O)NC(=O)C(C)C2C)c1 | - | K103N + Y181C | RT activity | pseudotyped | 3.6 µM
OCCc1ccc(O)c(O)c1 | - | - | - | - | 16.5 µg/mL
Cc1occc1C(=S)Nc1ccc(Cl)c(/C=N/OC(C)(C)C)c1 | - | - | - | - | 0.2 µM
COc1ccc(Cn2cc(CSc3nc(Cc4cccc5ccccc45)c(C)c(=O)[nH]3)nn2)cc1 | IIIB | - | MTT | - | >26.53 µM
OCC1(F)OC(n2cnc3c(N(Cc4ccccc4)Cc4ccccc4)ncnc32)CC1OCc1ccccc1 | - | - | - | - | 4 µM
CCN1C(=O)C(c2cc(O)cc(-c3cccnc3)c2)C(=O)N(c2ccccc2)c2cc(C(F)(F)F)ccc21 | NL4-3 | - | luciferase | - | 0.48 µM
CCCn1c(=O)c(C)cn([C@@H]2O[C@H](CO[Si](C)(C)C(C)(C)C)C3(OS(=O)(=O)C=C3N)[C@H]2O[Si](C)(C)C(C)(C)C)c1=O | - | - | - | - | 0.03–0.76 µM
c1ccc(CNCc2ccc(CN3CCCNCCNCCCNCC3)cc2)nc1 | BaL | - | - | - | >5 µg/mL
O=c1cc(Cc2c(Cl)cccc2Cl)nc(SCc2cn(Cc3ccccc3)nn2)[nH]1 | IIIB | - | MTT | - | >273 µM
COc1cc(CCOC(=O)CCC(=O)CO)cc(O)c1OC | - | - | - | - | 2.95 µg/mL
CCN1c2ncc(CCc3ccc(OCP(=O)(O)O)cc3)cc2C(=O)N(C)c2cccnc21 | - | - | - | - | >5 µM
COc1ccc(Cn2cc(CSc3nc(Cc4cccc5ccccc45)cc(=O)[nH]3)nn2)cc1 | IIIB | - | MTT | - | >68.53 µM
NC(=O)c1nnn([C@@H]2O[C@@H](CO)[C@H](O)[C@H]2F)c1N | - | - | - | - | >100 µM
Cc1c(C#N)cc(C(F)F)cc1Oc1c(C(F)(F)C(F)F)ncn(Cc2cc(F)c[nH]c2=O)c1=O | - | Y181C | luminescence | - | 0.0211 µM
Cn1c(=O)cc(Oc2nc(Nc3ccc(C#N)cc3)nc(Nc3nc4ccc(Br)cc4s3)n2)c2ccccc21 | IIIB | - | MTT | - | >14.5 µg/mL
CC(C)(c1cc2cnccc2o1)N1CCN(C[C@@H](O)C[C@@H](Cc2ccccc2)C(=O)N[C@H]2c3ccccc3OC[C@H]2O)[C@H](C(=O)NCC(F)(F)F)C1 | 4X (PR M46I L63P V82T I84V) Recombinant | PR-M46I L63P V82T I84V | p24 | - | 0.008 µM
CC1(C)C2=CC(=O)C(O)(c3ccccc3)C(=O)N2c2ccc(Cl)cc21 | RF | - | cytopathic effect / MTT | - | 0.59 µM
O=[N+]([O-])c1ccc(/C=N/Nc2ccnc3c(C(F)(F)F)cc(Cl)cc23)o1 | - | - | cytopathic effect | - | 0.033 µM
Cc1cn([C@@H]2O[C@H](CO[Si](C)(C)C(C)(C)C)C3(OS(=O)(=O)C=C3N)[C@H]2O[Si](C)(C)C(C)(C)C)c(=O)n(CCCN(C)C)c1=O | - | - | - | - | 0.03–0.76 µM
Cn1c(=O)cc(Oc2nc(Nc3ccc(C#N)cc3)nc(Sc3nc4ccccc4s3)n2)c2ccccc21 | IIIB | - | MTT | - | >72.78 µg/mL
COC(=O)P(=S)(OC)OC[C@@H]1CC[C@H](n2cnc3c(N)ncnc32)O1 | - | - | p24 | - | 0.09–23 µM
Oc1ccc(-c2c(-c3cc(O)cc(O)c3)sc3ccccc23)cc1 | - | - | single cycle | - | 28.3–41.9 µM
COc1ccccc1C(=O)Nc1ccc(Cl)c(C(=O)OC(C)C)c1 | UC781-RS(RT-Y181C | RT-Y181C | - | - | 10.1 µM
CC1(Cn2cnc3c(=O)[nH]c(N)nc32)CC1CO | - | - | - | - | >100 µg/mL
O=C(O)C(=O)CC(=O)c1cccn1Cc1ccc(-c2ccccc2)cc1 | - | - | - | - | >50 µM
O=c1[nH]c(SCc2cn(Cc3ccc(F)cc3)nn2)nc(Cc2c(Cl)cccc2Cl)c1I | RES056 | - | MTT | - | >92.05 µM
C#C[C@]1(CO)O[C@@H](n2cnc3c(N)nc(F)nc32)C[C@@H]1O | WT | - | - | - | 0.0002 µM
CC(C)(C)NC(=O)[C@@H]1C[C@@H]2CCCC[C@@H]2CN1C[C@@H](O)[C@H](Cc1ccccc1)NC(=O)[C@@H](NC(=O)COc1cccnc1)C(C)(C)S(C)(=O)=O | - | PR-L10I G48V V82A L90M | - | - | 0.015 µM
Cc1nc2ccccc2c(-c2ccc3c(c2)CCCO3)c1C(OC(C)(C)C)C(=O)O | - | - | luciferase | - | 11 µM
NC(=O)C[C@H](NNC(=O)CN1CCCC(NC(=O)CCCCCCCCCCCCCCC(=O)O)C1=O)C(=O)N[C@@H](Cc1ccccc1)C(=O)O | - | - | MTT | - | >125 µg/mL
CCCc1cc(=O)oc2c3c(c4c(c12)OC(C)(C)C=C4)O[C@@H](C)[C@H](C)[C@@H]3O | - | - | cytopathic effect / XTT | - | 0.3 µM
CN1N=C(N)c2cn([C@@H]3O[C@H](COP(=O)(O)O)[C@@H](O)[C@H]3O)c3ncnc1c23 | IIIB | - | RT activity | - | 0.03 µM
Nc1ncnc2c1ncn2[C@@H]1O[C@H](CO)C=C[C@@H]1F | - | - | - | - | >100 µg/mL
CCCCCCCCCCCCCCCCOCCCOP(=O)(O)COCCn1cnc2c(N)ncnc21 | - | - | - | - | 0.0008 µM
Cc1cn([C@@H]2O[C@H](CO[Si](C)(C)C(C)(C)C)C3(OS(=O)(=O)C=C3N)[C@H]2O[Si](C)(C)C(C)(C)C)c(=O)n(CCCN(CCCl)CCCl)c1=O | - | - | - | - | 0.03–0.76 µM
O=C(CO)CCC(=O)OCCc1ccc2c(c1)OCO2 | - | - | - | - | 6.71 µg/mL
C#C[C@]1(CO)O[C@@H](n2cc(C)c(=O)[nH]c2=O)C[C@@H]1O | - | - | - | - | 0.22 µg/mL
O=S(=O)(c1ccccc1)c1ccccc1 | - | - | - | - | 7 µM
CC[C@H](C)C=C(C)/C=C/C1=CC2=C(Cl)C(=O)[C@]3(C)OC(=O)[C@@H](C(C)=O)[C@@H]3C2=CO1 | - | - | ELISA | - | 6.6 µM
CCOC(=O)c1cnnn1[C@@H]1O[C@@H](COC(=O)c2ccccc2)[C@H](OC(=O)c2ccccc2)[C@H]1F | - | - | - | - | >100 µM
OCCc1ccc(O[C@@H]2O[C@H](CO)[C@@H](O)[C@H](O)[C@H]2O)c(O)c1 | - | - | - | - | 36.8 µg/mL
Oc1cc(O)cc([C@@H]2c3c(/C=C/c4ccc(O)c(O)c4)cc(O)cc3O[C@H]2c2ccc(O)c(O)c2)c1 | IIIB | - | - | - | 7 µg/mL
CO[P@](=O)(c1cc(C)cc(/C=C/C#N)c1)c1c(C(N)=O)[nH]c2ccc(Cl)cc12 | BH10 | Y181C/K103N | - | - | <0.0231 µM
Cn1c(=O)cc(Oc2nc(Nc3ccc(C#N)cc3)nc(Nc3ccccn3)n2)c2ccccc21 | IIIB | - | MTT | - | >74.1 µg/mL
CCCCCCCCCCCCCCCOP(=O)(OCc1ccc(OC(=O)CCCC)cc1)OP(=O)(O)OP(=O)(O)OC[C@@H]1C=C[C@H](n2cc(C)c(=O)[nH]c2=O)O1 | - | - | - | - | 0.25 µM
Cc1cn([C@H]2C[C@H](N=[N+]=[N-])[C@@H](CO)O2)c(=O)[nH]c1=O | IIIB | - | - | - | 0.0016 µg/mL

5 of the rows above, restated:

structure | strain or isolate | mutations | read by | conditions | value
Cn1c(=O)cc(Oc2nc(Nc3ccc(C#N)cc3)nc(Nc3nc4ccc(F)cc4s3)n2)c2ccccc21 | IIIB | - | MTT | - | >2.26 µg/mL
O=C(O)/C=C/c1ccc(O)c(O)c1 | - | - | - | - | >1000 µM
c1ccc(CNCc2ccc(CN3CCCNCCNCCCNCC3)cc2)nc1 | BaL | - | - | - | >5 µg/mL
CNC(=O)CCCCn1c(=O)c(C)cn([C@@H]2O[C@H](CO[Si](C)(C)C(C)(C)C)C3(OS(=O)(=O)C=C3N)[C@H]2O[Si](C)(C)C(C)(C)C)c1=O | - | - | - | - | 0.03–0.76 µM
O=C1Nc2ccc(Cl)cc2[C@@](C#CC2CC2)(C(F)(F)F)O1 | LAI | - | - | pseudotyped | 0.00038 µM

Lines come from different laboratories, so protocols vary. An empty or dashed field is not shown. Two numbers with a dash give a range or band.